Human monoclonal antibodies against the spike receptor-binding domain (heavy:light variable regions). IC50 against pseudoviruses bearing the spike of naturally observed variants; lower = stronger; >10 µg/ml means not reached at the top dose. No active / inactive call. The stated detection limit is 0.0005 µg/ml; values near or below 0.001 µg/ml lie at the floor of the assay.
B1: BD55-6199 (protein)
chain 1: QITLKESGPTLVKPTQTLTLTCTFSGFSLSTSGVGVGWIRQPPGKALEWLALIYWDDDKRYSPSLKSRLTISKDTSKNQVVLTMTNMDPVDTATYYCAHSPGLYFYGSGSYYLYWGQGTLVTVSS
chain 2: EIVLTQSPGTLSLSPGERATLSCRASQSLSSSYLAWYQQKPGQAPRLLIYGDSSRATGIPDRFSGSGSGTDFTLTISRLEPEDFAVYYCQQYFSSPQTFGQGTKVEIK
B2: BD55-6194 (protein)
chain 1: EMQLVESGGGLVQPGRSLTLSCTASGFTLGDYTVNWVRQAPGKGLEWLGFIRNNAYGGAPEYAASVRGRFSVSRDDSKATAYLQMNGLKIEDTAVYYCAREGGSSGWSYYYYMDVWGKGTTVTVSS
chain 2: DIQMTQSPSSLSGSLGDRVTMTCRASQTISNYLNWYQQKPGRAPKLLIYAASTLQSGVPSRFTGSGSGTEFTLTITSLQPDDFATYICQQSYTSQYTFGQGTKLEIK
B3: BD55-6260 (protein)
chain 1: QVQLVQSGAEVKKPGASVKVSCKTSGNTFTSYDVNWLRQATGQGLEWMGWMNPNSGDTGYASKFQGRVTMTRDTSTATAYMELSSLRSEDTAVYYCAGGPSSFYGFRNWFDPWGQGTLVTVSS
chain 2: DIQMTQSPSSLSASVGDRVTITCRASQSISSYLNWYHQKPGNAPKLLIYGASSLQSGVPSRFSGSGSGTDFTLTISSLQPEDFAIYYCQQSYTTPYTFGQGTKLEIK
B4: BD-508 (protein)
chain 1: EVQLVESGGGLVQPGGSLRLSCAASGFIVSSNYMTWVRQAPGKGLEWVSVIYSGGSTFYADSVKGRFTISRHNSKNTLFLQMNSLRAEDTAVYYCARDAQNYGMDVWGQGTTVTVSS
chain 2: DIQMTQSPSSLSASVGDRVTITCRASQSISSYLNWYQQKPGKAPKLLIFAASSLQTGAPSRFSGSGSGTDFTLTISSLQPEDFATYYCQQSYSTPPYTFGQGTKLEIK
B5: BD55-6246 (protein)
chain 1: QVQLVQSGAEVKKPGASVKVSCKASGYTFTTYDINWVRQAAGQGPEWMGWMNPNSGDTGYAHRFQDRVIMTRNTSISTAYMELSSLRSDDTAVYYCAIDSGFRAAYFYYYRMDVWGQGTTVTVSS
chain 2: DIQMTQSPSSLSASVGDRVTITCRASQSISDSLNWYQQKPGKAPNLLMSAASNLQSGVPSRFSGSGSGTDFTLTISSLQPEDFATYYCQQSYTFPTTFGGGTKVEIK
B6: BD55-6207 (protein)
chain 1: EVQLLESGGGLVQPGGSLRLSCAASGFTFSKYAMSWVRQAPGKGLEWVSVIYSGSDGTNYGEFVKGRFTISRDDSKSMVYLQMNSLRADDTAVYYCAKEDAMTTVGYYAMDVWGQGTTVTVSS
chain 2: DIQMTQSSSSLSASVGDRVTITCRASQSIGDYLNWYQQKPGKAPKLLIYAASRLQSGVPSRFTGSGSGTDFTLTITSLQPEDFATYYCQQSYSTPQWTFGQGTKLEIK
B7: BD55-1201 (protein)
chain 1: EVQLVESGGGLVQSGRSLRLSCAASGFTFDDYAIHWVRQLPGKGLEWVSGISWNGGIIGYVDSVKGRYVISRDNAKNFLYLHMRNLRAEDSALYYCAKDVVPGDRNSYAFDIWGQGTMVTVSS
chain 2: QSALTQPASVSGSPGQSITISCTGTSSDVGVYNYVSWYQHHPGKAPKLMIYDVSNRPSGVSHRFSGSKSGNTASLTISGLQAEDEADYYCSSYTSSDTVIFAGGTKLTVL
B8: BD55-6221 (protein)
chain 1: QVQLVQSGTEVKKPGSSVRVSCKASGGTFRSYSISWVRQAPGQGLEWMGEIISFFRTTNYAQKFQGRVTITADESTSTAYMELSSLRSEDTAVYYCARDNLLSLVGSTIRDYYYMDVWGTGTTVIVSS
chain 2: DIQMTQSPSSLSASVGDRVTITCRASQNISNFLNWYQREQGKAPKLLIYAASTLQSGVPSRFSGSGSGTDFTLTLSSLQPEDFAIYYCQQSYNNPRTFGQGTKLEIK
B9: BD55-1180 (protein)
chain 1: LVESGGGLVKAGGSLRLSCAASTFTFSDYQMTWFRQAPGKGLEWVSYINSRGDLTYYADSVKGRFTISRDNSKNSLFLQMNSLRVEDTAVYYCARDPVTPRRFDYWGQGTLVTVSS
chain 2: DIQMTQSPSSLSASVGDRVTITCQASQDINKYLNWYQQKPGKAPKLLIYDASGLETGVPSRFSGSGSGTDFTFSISSLQPEDFATYYCQQYDKLPLTFGQGTKLEIK
B10: BD55-6197 (protein)
chain 1: QVQLVQSGSELKKPGASVKVSCKASGYTFTTQAMNWVRQAPGQGLEWMGWINTNTGNPTYAQGFTGRFVFSLDTSVSTAYLQISSLKAEDTAVYYCARELNQGYSGYDWWDHDAFDIWGQGTMVTVSS
chain 2: QSALTQPPSASGSPGQSVTISCTGTSSDVGGYNYVSWYQQHPGKAPKLMIYEVSKRSSGVPDRFTGSKSGNTASLTVSGLQGEDEADYYCSSYAGSTTVVFGGGTKLTVL
B11: BD55-6224 (protein)
chain 1: QVQLVESGGGVVQPGRSLRLSCTASGFTFRSYGMHWVRQAPGKGLEWVAIIWYDGSKKYYADSVRGRFTISRDNSKNTLYMEMNSLGAEDTAVYYCARDSQCSGASCYFDYNWFDRWGQGTLVTVSS
chain 2: EIVLTQSPATLSLSPGERATLSCRTSQSISSNLAWYQQKPGQAPRLVIYDASNRATGIPARFSGSGSGTDFTLTISSLEPEDFAVYYCQQRHIWPPAYTFGQGTKLEIK
B12: BD55-6209 (protein)
chain 1: QVTLKESGPVLVKPTETLTLTCTVSGFSLSSGKMGVGWIRQPPGKALEWLAHIFSNDEASYSTSLRSRLTISKDTSGNQVVLTMTNMDPVDTATYYCARLGSGSYYTNWFDPWGQGTLVTVSS
chain 2: ELTQPPSVSVSPGQTARITCSADGLSRQYANWYQKKPGQAPVLVIYKDSERPSGIPERFSGSSSGTTVTLTIGGVQAEDEADYYCQTADSSGTSVMFGGGTKLTVL

Molecular target: SARS-CoV-2 Omicron BA.1 spike pseudovirus
Assay: pseudovirus neutralization IC50; higher = weaker neutralization
Description: (§1)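 Single-round VSV luciferase pseudovirus mixed with antibody dilutions for 1 h and put on Huh-7 cells for about a day; IC50 from the dose curve.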

| Binder | pseudovirus neutralization IC50 |
| --- | --- |
| B1 | > 10 µg/mL |
| B2 | > 10 µg/mL |
| B3 | > 10 µg/mL |
| B4 | > 10 µg/mL |
| B5 | > 10 µg/mL |
| B6 | > 10 µg/mL |
| B7 | 0.00619 µg/mL |
| B8 | > 10 µg/mL |
| B9 | > 10 µg/mL |
| B10 | > 10 µg/mL |
| B11 | > 10 µg/mL |
| B12 | > 10 µg/mL |

Molecular target: SARS-CoV-2 Omicron BA.2 spike pseudovirus
Assay: as above
Description: as §1

| Binder | pseudovirus neutralization IC50 |
| --- | --- |
| B1 | > 10 µg/mL |
| B2 | > 10 µg/mL |
| B3 | > 10 µg/mL |
| B4 | > 10 µg/mL |
| B5 | > 10 µg/mL |
| B6 | > 10 µg/mL |
| B7 | 0.0115 µg/mL |
| B8 | > 10 µg/mL |
| B9 | > 10 µg/mL |
| B10 | > 10 µg/mL |
| B11 | > 10 µg/mL |
| B12 | > 10 µg/mL |

Molecular target: SARS-CoV-2 Omicron BA.2.75 spike pseudovirus
Assay: as above
Description: as §1

| Binder | pseudovirus neutralization IC50 |
| --- | --- |
| B1 | > 10 µg/mL |
| B2 | > 10 µg/mL |
| B3 | > 10 µg/mL |
| B4 | > 10 µg/mL |
| B5 | > 10 µg/mL |
| B6 | > 10 µg/mL |
| B7 | 0.00978 µg/mL |
| B8 | > 10 µg/mL |
| B9 | > 10 µg/mL |
| B10 | > 10 µg/mL |
| B11 | > 10 µg/mL |
| B12 | > 10 µg/mL |

Molecular target: SARS-CoV-2 Omicron BA.5 spike pseudovirus
Assay: as above
Description: as §1

| Binder | pseudovirus neutralization IC50 |
| --- | --- |
| B1 | > 10 µg/mL |
| B2 | > 10 µg/mL |
| B3 | > 10 µg/mL |
| B4 | > 10 µg/mL |
| B5 | > 10 µg/mL |
| B6 | > 10 µg/mL |
| B7 | > 10 µg/mL |
| B8 | > 10 µg/mL |
| B9 | > 10 µg/mL |
| B10 | > 10 µg/mL |
| B11 | > 10 µg/mL |
| B12 | > 10 µg/mL |

Molecular target: SARS-CoV-2 Omicron BQ.1.1 spike pseudovirus
Assay: as above
Description: as §1

| Binder | pseudovirus neutralization IC50 |
| --- | --- |
| B1 | > 10 µg/mL |
| B2 | > 10 µg/mL |
| B3 | > 10 µg/mL |
| B4 | > 10 µg/mL |
| B5 | > 10 µg/mL |
| B6 | > 10 µg/mL |
| B7 | > 10 µg/mL |
| B8 | > 10 µg/mL |
| B9 | > 10 µg/mL |
| B10 | > 10 µg/mL |
| B11 | > 10 µg/mL |
| B12 | > 10 µg/mL |

Molecular target: SARS-CoV-2 Omicron XBB spike pseudovirus
Assay: as above
Description: as §1

| Binder | pseudovirus neutralization IC50 |
| --- | --- |
| B1 | > 10 µg/mL |
| B2 | > 10 µg/mL |
| B3 | > 10 µg/mL |
| B4 | > 10 µg/mL |
| B5 | > 10 µg/mL |
| B6 | > 10 µg/mL |
| B7 | > 10 µg/mL |
| B8 | > 10 µg/mL |
| B9 | > 10 µg/mL |
| B10 | > 10 µg/mL |
| B11 | > 10 µg/mL |
| B12 | > 10 µg/mL |

Molecular target: SARS-CoV-2 early D614G spike pseudovirus
Assay: as above
Description: as §1

| Binder | pseudovirus neutralization IC50 |
| --- | --- |
| B1 | > 10 µg/mL |
| B2 | > 10 µg/mL |
| B3 | > 10 µg/mL |
| B4 | 0.0271 µg/mL |
| B5 | > 10 µg/mL |
| B6 | > 10 µg/mL |
| B7 | 0.00687 µg/mL |
| B8 | > 10 µg/mL |
| B9 | 0.001 µg/mL |
| B10 | 0.138 µg/mL |
| B11 | > 10 µg/mL |
| B12 | > 10 µg/mL |
